Pooled drug test results. Numbers come from NIAID ChemDB, via PubChem.

Shared fields: growth or infection tests; species: Herpes simplex virus 1; cell line: VERO; measure: inhibition

Neighbouring rows are from separate reports. Inhibition is in % at the dose shown (toxicity tests: loss of growth or viability). Blank or dashed fields: not listed here. For "inactive" no cut-off is given.

structure | strain or isolate | read by | dose | value
O=C1C(=O)N([C@@H]2O[C@H](COCc3ccccc3)[C@@H](OCc3ccccc3)[C@H]2OCc2ccccc2)c2cc(Br)cc(Br)c21 |  | virus yield | 50 µM | 66%
Nc1nc(=S)c2[nH]c(-c3cscn3)nc2[nH]1 |  | plaque count | 1 µg/mL | 0%
Nc1nc(=O)n([C@@H]2O[C@H](CO)[C@@H](O)[C@@H]2F)cc1I | F | virus yield | 1 µM | 99.95%
S=C(NCCc1ccccc1)Nc1ccc(Oc2ccc(NC(=S)NCCc3ccccc3)cc2)cc1 |  | plaque count | 30 µM | <50%
CNc1[nH]c(=S)nc2c1C(c1ccc([N+](=O)[O-])cc1)c1c([nH]c(=S)[nH]c1=O)O2 |  |  | 50 µg/mL | 70%
COc1ccc(NC(=O)Nc2ccc([N+](=O)[O-])cc2)cc1NC(=O)Nc1ccc([N+](=O)[O-])cc1 |  | plaque count | 30 µM | >50%
CC/C=C/C/C=C/C/C=C/CCCCCCCC(=O)OCC(CO[C@@H]1O[C@H](CO)[C@@H](O)[C@H](O)[C@H]1O)OC(=O)CCCCCCC/C=C/C/C=C/C/C=C/CC | KOS | plaque count | 50 µg/mL | 94%
Cc1ccc2c(c1)C(=O)C(=O)N2[C@@H]1O[C@H](COCc2ccccc2)[C@@H](OCc2ccccc2)[C@H]1OCc1ccccc1 |  | virus yield | 50 µM | 46%
C[C@H]1/C=C/[C@@]2(C)CC[C@@H](C(C)(C)O)[C@@H]2[C@@H](O)C[C@](C)(O)/C=C/C1 |  | cytopathic effect | 15 µM | 81%
O=c1[nH]cnc2c1nnn2[C@H]1c2ccccc2C[C@@H]1O | F | plaque count | 100 µM | 0%
O=[N+]([O-])c1ccc(NC(=S)Nc2ccc(Cc3ccc(NC(=S)Nc4ccc([N+](=O)[O-])cc4)cc3)cc2)cc1 |  | plaque count | 30 µM | >90%
O=c1[nH]c(=O)n([C@@H]2O[C@H](CO)[C@@H](O)[C@@H]2F)cc1I | F | virus yield | 0.5 µM | 99.5%
O=S(=O)(c1ccc(OCc2ccncc2)cc1)c1ccc(OCc2ccncc2)cc1 |  | plaque count | 5 µM | <50%
O=C1Nc2ccc(F)cc2C1=O |  | virus yield | 50 µM | 60%
COc1ccc(NC(=O)Nc2ccc(Cl)cc2)cc1NC(=O)Nc1ccc(Cl)cc1 |  | plaque count | 5 µM | <50%
O=[N+]([O-])c1ccc(C2c3c(nc(=S)[nH]c3Cl)Oc3nc(=S)[nH]c(Cl)c32)cc1 |  |  | 10 µg/mL | 70%
CCCc1nc2n(n1)C(c1ccc(OC)cc1)CC(=O)N2 | 7401H | plaque count | 50 µg/mL | 15%
O=S(=O)(c1ccc(O)cc1)c1ccc(OCc2ccc(Cl)cc2)cc1 |  | plaque count | 5 µM | 0%
O=C1C(=O)N([C@@H]2O[C@H](COCc3ccccc3)[C@@H](OCc3ccccc3)[C@H]2OCc2ccccc2)c2ccc(F)cc21 |  | virus yield | 50 µM | 15%
Nc1ccn([C@H]2O[C@@H](CO)[C@H](O)[C@H]2F)c(=O)n1 | F | virus yield | 0.5 µM | 40%
O=C1CC(c2ccc([N+](=O)[O-])cc2)n2nc(-c3ccc4ccccc4c3)nc2N1 | 7401H | plaque count | 50 µg/mL | 28%
C/C=C/c1cn([C@H]2C[C@H](O)[C@@H](CO)O2)c(=O)[nH]c1=O | F-2 | plaque count | 10 µM | 68%
CCCCCc1nc2n(n1)C(c1ccccc1)CC(=O)N2 | 7401H | plaque count | 50 µg/mL | 88%
Cc1cn([C@@H]2O[C@H](CO)[C@@H](O)[C@@H]2F)c(=O)[nH]c1=O | F | virus yield | 10 µM | 99.65%
Nc1nc2c(ncn2COCCO)c(=O)[nH]1 | 7401H | virus yield | 0.6 µg/mL | >99%
CCCCCCCCCCCCCCCCCCCCCC(=O)OCC(CO[C@@H]1O[C@H](CO)[C@@H](O)[C@H](O)[C@H]1O)OC(=O)CCCCCCCCCCCCCCCCCCCCC | KOS | plaque count | 50 µg/mL | inactive
O=S(=O)(c1ccc(OCc2ccc(F)cc2)cc1)c1ccc(OCc2ccc(F)cc2)cc1 |  | plaque count | 5 µM | <50%
COc1cccc2c1C(=O)c1c(O)c3c(c(O)c1C2=O)C[C@@](O)(C(C)=O)C[C@@H]3O[C@H]1C[C@H](N)[C@H](O)[C@H](C)O1 |  | virus yield | 1 µM | 24%
O=C1CC(c2ccccc2)n2nc(-c3ccc4ccccc4c3)nc2N1 | 7401H | plaque count | 50 µg/mL | 25%
CCCCCCCCCCCC(=O)OC[C@H](CO[C@@H]1O[C@H](CO)[C@@H](O)[C@H](O)[C@H]1O)OC(=O)CCCCCCCCCCC | KOS | plaque count | 50 µg/mL | 80%
COc1ccc(NC(=O)Nc2ccc(C)cc2)cc1NC(=O)Nc1ccc(C)cc1 |  | plaque count | 30 µM | <50%
O=c1ccn([C@@H]2O[C@H](CO)[C@@H](O)[C@@H]2F)c(=O)[nH]1 | F | virus yield | 5 µM | 97.2%
CCCCCCCCCCCCCCCCCC(=O)OCC(CO[C@@H]1O[C@H](CO)[C@@H](O)[C@H](O)[C@H]1O)OC(=O)CCCCCCCCCCC | KOS | plaque count | 50 µg/mL | inactive
CCC(=O)C(CCCCCCOc1ccc(OC)cc1Cl)C(=O)CC | KOS | plaque count | 4 µg/mL | 64%
Nc1[nH]c(=S)nc2c1C(c1ccc(Cl)cc1)c1c([nH]c(=S)[nH]c1=O)N2 |  |  | 50 µg/mL | 50%
CCCCCCCCCCCC(=O)OCC(CO[C@@H]1O[C@H](CO)[C@@H](O)[C@H](O)[C@H]1O)OC(=O)CCCCCCCCCCC | KOS | plaque count | 50 µg/mL | 80%